## Results of single-concentration screens

Mtb glucose medium: 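Growth of Mycobacterium tuberculosis over 3 days (7H9 medium with glucose and tyloxapol); the read-out is not stated. Tested at 500 µM. The record gives no direction; compounds that gave an IC50 in retests scored well above the rest, so higher reads as more growth inhibition. About 18,000 compounds were tested under these conditions; 7.9% (about 1,400) showed 50% or more at least once.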
Mtb cholesterol medium: 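Growth of Mycobacterium tuberculosis over 4 days (cholesterol / DPPC medium with tyloxapol); the read-out is not stated. Tested at 500 µM. The record gives no direction; compounds that gave an IC50 in retests scored well above the rest, so higher reads as more growth inhibition. About 18,000 compounds were tested under these conditions; 5% (about 900) showed 50% or more at least once.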

Values are the deposited “Percent Effect”, in %.
The controls that fix the scale are not given in the record; negative values are as filed.
This is part of a subset picked to be rich in strong results.
A dash means the value is not listed here; it may have been measured.

compound,Mtb glucose medium,Mtb cholesterol medium
OCCNCCNCc1ccc(-c2ccccc2F)o1,62.58,7.661
CC(C)C(NC(=O)CS(C)(=O)=O)c1ccccn1 (centres unmarked),14.45,-
Cc1nn(C)c(C)c1CN1CC(C)C1,-,-1.582
Cc1nc(C)c(C(=O)NCCS(=O)(=O)CC(C)C)s1,-,-9.992
CS(=O)(=O)N(CC(F)(F)F)c1ccncc1,-,-7.793
O=C(NCCCN1CCCCC1)c1ccccc1,0.326,-
Cc1ccc(C)c(NC(=O)CN2CCNC(=O)C2)c1,-,0.6146
CN(Cc1ncnn1C)C(=O)CCc1cccc(Cl)c1,41.76,-
CNCC1CCCN1S(=O)(=O)c1ccccc1 (centres unmarked),8.643,-
Cc1nnc(CN(C)C(=O)CSCC2CC2)o1,14.41,-
CCOC(=O)NCCC(=O)NCc1ccccn1,19.14,-2.205
CC1CN(C(=O)c2ccc(Cl)o2)CC(C)(C)O1 (centres unmarked),-,-6.107
Cc1cccc2[nH]c(CN)nc12,48,36.26
CC(CN)c1ccc(F)cc1 (centres unmarked),3.751,-
Cn1ncc(N[C@@H]2C=C[C@H](CO)C2)c(Cl)c1=O,7.391,-
CC(C)Cc1cc(C(=O)NCC2(O)CCOCC2)[nH]n1,15.44,-
CC(N)c1ccccc1-n1cccn1 (centres unmarked),18.75,-
CC1CN(c2ccnc3ccc(Cl)cc23)CCS1(=O)=O (centres unmarked),-,-2.968
OC[C@@H]1CNC[C@H]1C1CCN(Cc2ccco2)CC1,9.798,-
CCS(=O)(=O)c1ccc(CNc2cc(C)ccn2)cc1,1.479,-
O=C(NCCS(=O)(=O)N1CCSCC1)c1ccccc1,-3.073,0.4997
CCn1cnnc1CNC(=O)NC(C)Cn1cccn1 (centres unmarked),10.13,-
CC(C)Nc1cccc(C(=O)NC(C)CO)c1 (centres unmarked),-,-8.718
CCN(C(=O)NCCc1ccco1)C(C)CS(C)(=O)=O (centres unmarked),-0.3282,-
O=c1[nH]cnc2ccc(Cl)cc12,-,-4.459
COCC1(C(=O)N2CCCC(CC(N)=O)C2)CCC1 (centres unmarked),-0.1719,-
NC(=O)CCSCc1ccn(-c2ccccc2)n1,71.02,86.71
Cc1nnc(SC(C#N)C2CCCCC2)n1CC(N)=O (centres unmarked),22.71,-
O=C(c1ccc(N2CCCCC2=O)cc1)N1CCC1,9.621,1.227
CS(=O)(=O)Cc1ccccc1NCc1ccsc1,64.2,67.35
Cc1c(C(=O)NCC(N)=O)oc2ccc(Cl)cc12,52.57,-
CC(C)OCC(=O)N1C[C@@H](C)[C@](O)(C2CC2)C1,-,-17.23
CCc1ccc(CN2CCCCC2C(=O)NC)nc1 (centres unmarked),11.4,-
O=C(c1ccccc1)N1CC[C@H](CO)[C@@H](O)C1,11.15,-
NC(=O)[C@H](Cc1ccccc1)NC(=O)c1cnn[nH]1,-,-13.7
CCOCCC(=O)NC(C)c1nncn1C(C)C (centres unmarked),-,-6.597
CCC(O)CN1CCN(c2ccccc2C#N)C(=O)C1 (centres unmarked),5.122,-
CC1CCCCN1C(=O)c1ccc(CN)cc1 (centres unmarked),-,5.197
CN(C)C(=O)CSCC(=O)NCc1ccc(Cl)cc1,64.1,-
COCC1(C(=O)N[C@@H]2CCOC[C@H]2O)CC1,-3.941,-
NC(=O)NCC1CCCN(C(=O)NC2CCCCC2)C1 (centres unmarked),4.771,-
Cc1ccc2c(c1)C(O)CCCS2(=O)=O (centres unmarked),10.12,2.629
COc1ccccc1C(O)CNc1cccc(C)n1 (centres unmarked),66.29,-
O=C(Nc1ccc2c(c1)C(=O)NC2=O)c1ccc(Br)o1,7.86,-
CC(=O)N(Cc1noc(C2CC2)n1)C1CCNC1 (centres unmarked),7.461,0.8846
CC(C)(CC(N)=O)NC(=O)C1CC=CC1,2.618,-

Some entries from above, unchanged:

compound,Mtb glucose medium,Mtb cholesterol medium
OCCNCCNCc1ccc(-c2ccccc2F)o1,62.58,7.661
CNCC1CCCN1S(=O)(=O)c1ccccc1 (centres unmarked),8.643,-
CN(C)C(=O)CSCC(=O)NCc1ccc(Cl)cc1,64.1,-
Cc1ccc2c(c1)C(O)CCCS2(=O)=O (centres unmarked),10.12,2.629
CCOCCC(=O)NC(C)c1nncn1C(C)C (centres unmarked),-,-6.597
CC(N)c1ccccc1-n1cccn1 (centres unmarked),18.75,-

The values are deposited in ChEMBL (CHEMBL3988442, “University of Dundee, Small-Polar-MMV Screening Library” (2021)).